Pooled drug test results. Numbers come from NIAID ChemDB, via PubChem.

All rows: growth or infection tests; organism: Rhinovirus; cells: HeLa; endpoint: EC50

ECn is the concentration giving n% inhibition of infection, replication or growth. Lines come from different laboratories, so protocols vary.

smiles	strain or isolate	method	result
C#CCOc1cc(OC)ccc1-c1cc(N(CC)CC)no1	Serotype 14	cytopathic effect	>40 µM
Cc1nc(-c2cc(C)c(OCCCc3ccco3)c(C)c2)no1	serotypes 2 14 1A 1B 6 21 22 15 25 30 50 67 89 86 41	cytopathic effect	0.475 µg/mL
Cc1cc(CCCCCOc2c(Cl)cc(C3=NCCO3)cc2Cl)on1	Serotype 14	cytopathic effect	1.2 µM
CCN(CC)c1cc(-c2ccc(OC)cc2OC)on1	Serotype 89 (group B)	cytopathic effect	17.2 µM
CS(=O)(=O)c1ccc(NCc2ccc(Cl)c(Cl)c2)nc1	TYPE 1A	cytopathic effect	2.5 µg/mL
CCSc1ccc(Oc2ccc(C(=O)c3ccccc3)cc2)nc1C#N	TYPE 2	cytopathic effect	>3.1 µg/mL
Cc1nc(-c2cc(C)c(OCCCc3ccc(C=O)o3)c(C)c2)no1	serotypes 3 4 5 9 16 18 38 66 75 67	cytopathic effect	0.446 µg/mL
CS(=O)(=O)c1ccc(Cc2ccc(F)cc2)nc1	TYPE 64	cytopathic effect	>10 µg/mL
Cc1cc(CCCCCOc2c(Cl)cc(C3=NCCO3)cc2Cl)on1	TYPE 86	plaque count	0.14 µg/mL
COc1ccc(C(=O)CCCCOc2ccc(C3=NCCO3)cc2)cc1	Serotype 14	cytopathic effect	0.4 µM
Cc1nc(-c2cc(C)c(OCCCc3cc(C4CC4)no3)c(C)c2)no1	Serotype 50	cytopathic effect	0.042 µg/mL
CCOC(=O)c1ccc(OCCC2CCN(c3ccc(C)nn3)CC2)cc1	Serotype 16	cytopathic effect	<0.1 µg/mL
CN(C)c1cc(-c2ccc(O)cc2O)on1	Serotype 2	cytopathic effect	>227 µM
COc1ccc(C(=O)CCCCOc2c(Cl)cc(C3=NCCO3)cc2Cl)cc1	Serotype 2	cytopathic effect	>237 µM
COc1ccc(-c2cc(N3CCCC3)no2)c(O)c1	Serotype 42 (group A)	cytopathic effect	>384 µM
O=C(CCCCOc1ccc(C2=NCCO2)cc1)c1ccc(F)cc1	Serotype 14	cytopathic effect	13.2 µM
CCCc1ccc(CCCOc2ccc(-c3ccccc3)c(Br)c2)nn1	serotypes 3 4 5 9 16 18 38 66 75 67	cytopathic effect	0.01 µg/mL
CS(=O)(=O)c1ccc(Oc2ccc(C(=O)c3ccccc3)cc2)nc1	TYPE 89	cytopathic effect	5 µg/mL
CS(=O)(=O)c1ccc(NCc2ccc(C(F)(F)F)cc2)nc1	TYPE 64	cytopathic effect	1.6 µg/mL
CCOc1cc(CCCOc2c(C)cc(-c3noc(C)n3)cc2C)on1	Serotype 50	cytopathic effect	0.07 µg/mL
CS(=O)(=O)c1ccc(Cc2ccc(Cl)c(Cl)c2)nc1	TYPE 39	cytopathic effect	5 µg/mL
CCOc1cc(OC)ccc1-c1cc(N(CC)CC)no1	Serotype 9 (group B)	cytopathic effect	15.5 µM
COCc1cc(CCCOc2c(Cl)cc(-c3noc(C)n3)cc2Cl)on1	Serotype 25	cytopathic effect	0.022 µg/mL
CCOC(=O)c1ccc(OCCCCC(=O)c2ccc(Cl)c(Cl)c2)cc1	Serotype 2	cytopathic effect	>253 µM
COc1ccc(CCCOc2cc(C)c(-c3noc(C(F)(F)F)n3)c(C)c2)nn1	serotypes 3 4 5 9 16 18 38 66 75 67	cytopathic effect	10.09 µg/mL
CS(=O)(=O)c1ccc(Cc2ccc(Sc3ccccc3)cc2)nc1	TYPE 1A	cytopathic effect	0.6 µg/mL
CCOC(=O)c1ccc(OCCCCC(=O)c2ccc(F)cc2)cc1	Serotype 2	cytopathic effect	6.1 µM

2 of the rows above, restated:

CS(=O)(=O)c1ccc(Cc2ccc(Sc3ccccc3)cc2)nc1 ; strain or isolate: TYPE 1A ; method: cytopathic effect ; result: 0.6 µg/mL
CS(=O)(=O)c1ccc(Cc2ccc(Cl)c(Cl)c2)nc1 ; strain or isolate: TYPE 39 ; method: cytopathic effect ; result: 5 µg/mL